PubChem BioAssay AID624099 – ICCB-Longwood | 2012
Shown is one part, drawn at random, of about 21,000 reagents tested. 497 of all reagents (2.4%) were called active. 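Higher z means weaker E2 silencing; only reporter increases were scored, and knock-downs that hurt cell survival may mask genuine repressor factors.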 The numbers tell different reagents against one gene apart.

Assay: 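Host factors E2 relies on to silence an HPV18 LCR reporter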 (primary screen)
Cells: human C33A cervical carcinoma cells (HPV-negative) stably expressing BPV1 E2 and an HPV18 LCR luciferase reporter
Knock-down reagent: siRNA pool against human genes, 40 nM
Timing: 72 h
Measurement: 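Per-well luciferase luminescence, z-scored on each plate against the plate mean and SD with control wells left out, then averaged across three replicate plates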
Direction: mean z-score and z-score: higher = stronger reporter signal, weaker E2 silencing
Rule for the call: 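Hit if mean z-score reaches 2 and two or more of three replicate z-scores also reach 2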

HCAR3 → mean z-score = -1.25; z-score, replicate A = -1.35; z-score, replicate B = -1.34; z-score, replicate C = -1.05; activity call = inactive
LRRC26 → mean z-score = -0.18; z-score, replicate A = -0.04; z-score, replicate B = -0.17; z-score, replicate C = -0.33; activity call = inactive
VPS35 → mean z-score = 1.18; z-score, replicate A = 1.12; z-score, replicate B = 1.04; z-score, replicate C = 1.39; activity call = inactive
CHIC2 → mean z-score = -0.04; z-score, replicate A = 0.14; z-score, replicate B = -0.22; z-score, replicate C = -0.05; activity call = inactive
GMDS → mean z-score = 0.34; z-score, replicate A = -0.4; z-score, replicate B = 0.37; z-score, replicate C = 1.07; activity call = inactive
PPP1R3G → mean z-score = -0.24; z-score, replicate A = -0.21; z-score, replicate B = -0.48; z-score, replicate C = -0.03; activity call = inactive
PAM → mean z-score = -0.39; z-score, replicate A = -0.54; z-score, replicate B = -0.31; z-score, replicate C = -0.3; activity call = inactive
SPMAP2 → mean z-score = 1.29; z-score, replicate A = 0.75; z-score, replicate B = 1.63; z-score, replicate C = 1.5; activity call = inactive
ALPI → mean z-score = 0.74; z-score, replicate A = 0.81; z-score, replicate B = 0.44; z-score, replicate C = 0.98; activity call = inactive
PPL → mean z-score = 0.08; z-score, replicate A = -0.1; z-score, replicate B = 0.22; z-score, replicate C = 0.14; activity call = inactive

Part of the list above, reformatted:
Gene	pool no.	mean z-score	z-score, replicate A	z-score, replicate B	z-score, replicate C	activity call
VPS35	1	1.18	1.12	1.04	1.39	inactive
CHIC2	1	-0.04	0.14	-0.22	-0.05	inactive
GMDS	1	0.34	-0.4	0.37	1.07	inactive
PPP1R3G	1	-0.24	-0.21	-0.48	-0.03	inactive
PAM	1	-0.39	-0.54	-0.31	-0.3	inactive

More records follow:
CCDC88B → mean z-score = -1.24; z-score, replicate A = -1.28; z-score, replicate B = -1.02; z-score, replicate C = -1.44; activity call = inactive
MYO9A → mean z-score = 0.16; z-score, replicate A = -0.29; z-score, replicate B = 0.41; z-score, replicate C = 0.37; activity call = inactive
CDRT15P3 → mean z-score = 0.5; z-score, replicate A = 0.13; z-score, replicate B = 0.84; z-score, replicate C = 0.55; activity call = inactive
ANKRD6 → mean z-score = 0; z-score, replicate A = 0.39; z-score, replicate B = -0.04; z-score, replicate C = -0.35; activity call = inactive
TACR3 → mean z-score = -0.97; z-score, replicate A = -1.03; z-score, replicate B = -0.91; z-score, replicate C = -0.96; activity call = inactive
USP53 #1 → mean z-score = -0.1; z-score, replicate A = -0.35; z-score, replicate B = 0.04; z-score, replicate C = 0.02; activity call = inactive
USP53 #2 → mean z-score = 0.27; z-score, replicate A = 0.26; z-score, replicate B = 0.18; z-score, replicate C = 0.37; activity call = inactive
SIGLECL1 → mean z-score = 0; z-score, replicate A = 0; z-score, replicate B = 0.05; z-score, replicate C = -0.06; activity call = inactive
RBM14 #1 → mean z-score = 0.87; z-score, replicate A = 0.85; z-score, replicate B = 0.34; z-score, replicate C = 1.42; activity call = inactive
RBM14 #2 → mean z-score = 0.73; z-score, replicate A = 0.64; z-score, replicate B = 0.6; z-score, replicate C = 0.95; activity call = inactive
NUP160 → mean z-score = -1.13; z-score, replicate A = -1.16; z-score, replicate B = -1.34; z-score, replicate C = -0.88; activity call = inactive
STX4 → mean z-score = -0.49; z-score, replicate A = -0.17; z-score, replicate B = -0.6; z-score, replicate C = -0.7; activity call = inactive
LOC388587 (retired record) → mean z-score = -1.61; z-score, replicate A = -1.52; z-score, replicate B = -1.54; z-score, replicate C = -1.76; activity call = inactive
SESTD1 → mean z-score = -0.43; z-score, replicate A = -0.48; z-score, replicate B = -0.84; z-score, replicate C = 0.03; activity call = inactive
PEAK1 → mean z-score = -0.29; z-score, replicate A = -0.38; z-score, replicate B = -0.3; z-score, replicate C = -0.2; activity call = inactive
EDN1 → mean z-score = 0.15; z-score, replicate A = 0.12; z-score, replicate B = 0.16; z-score, replicate C = 0.18; activity call = inactive
DAXX → mean z-score = 1.46; z-score, replicate A = 1.01; z-score, replicate B = 1.56; z-score, replicate C = 1.8; activity call = inactive
